Compound potency records, mixed from different reports. Data source: NIAID ChemDB in PubChem.

Common to all: growth or infection tests; agent: Mycobacterium tuberculosis

Percent inhibition refers to the dose given; in toxicity tests it is the harm to the cells. Blank or dashed fields: not listed here. Conditions beyond the fields shown may differ between rows. A number after MIC or MFC names an inhibition level or a share of isolates.

smiles	strain	read-out	mutations	dose	read by	value
CO[C@H]1/C=C/O[C@@]2(C)Oc3c(C)c(O)c4c(O)c(c5c(c4c3C2=O)NC2(CCN(CC(C)C)CC2)N=5)=NC(=O)/C(C)=C\C=C\[C@H](C)[C@H](O)[C@@H](C)[C@@H](O)[C@@H](C)[C@H](OC(C)=O)[C@@H]1C	15 (rifampicin-susceptible)	MIC	-	-	-	≤0.062 µg/mL
CCCCC(CC)CN1CN(CC(CC)CCCC)CC(C)(NCCNCCc2ccc(O)c(OC)c2)C1	-	MIC	-	-	-	12.5 µM
Cc1ccccc1Sc1ncnc2nc[nH]c12	H37Ra	MIC	-	-	-	>12.8 µg/mL
CC1CN(c2cc3c(cc2F)c(=O)c(C(=O)O)cn3-c2ccc(F)cc2F)CCN1	MDR	MBC90	-	-	-	>8 µg/mL
COc1ccc(CSc2ncnc3nc[nH]c23)cc1	H37Ra	MIC	-	-	-	>12.8 µg/mL
C[C@H]1COc2c(N3CCN(C)CC3)c(F)cc3c(=O)c(C(=O)O)cn1c23	Clinical isolate BRF 26	MIC	INH resistant	-	resazurin	0.25 µg/mL
CC(NNC(=O)c1ccncc1)c1cccc(C(F)(F)F)c1	Isoniazid-resistant	MBC	-	-	-	>50 µg/mL
c1ccc(C(CCNCCNCC(c2ccccc2)c2ccccc2)c2ccccc2)cc1	-	MIC	-	-	-	37.5 µM
O=C(COc1cnccn1)NNC(=S)Nc1ccc(Cl)cc1	H37Rv	MIC	-	-	-	74 µg/mL
O=C(NNCc1ccc(F)cc1)c1ccncc1	H37Rv	MIC	-	-	-	0.39 µg/mL
COc1c(N2CCNC(C)C2)c(F)cc2c(=O)c(C(=O)O)cn(C3CC3)c12	Strain 5	MIC	-	-	-	0.125 µg/mL
CCCCCc1cc(OC)c2ccccc2n1	MT5	MIC	-	-	-	21 µg/mL
CC(CNCCNCCc1ccc(Cl)cc1Cl)c1ccccc1	-	MIC	-	-	-	25 µM
CC[C@H]1OC(=O)[C@H](C)[C@@H](O[C@H]2C[C@@](C)(OC)[C@@H](O)[C@H](C)O2)[C@H](C)[C@@H](O[C@@H]2O[C@H](C)C[C@H](N(C)C)[C@H]2O)[C@](C)(OC)C[C@@H](C)C(=O)[C@H](C)[C@@H](O)[C@]1(C)O	ATCC 35822	MIC	-	-	-	>8 µg/mL
CC(=O)NC[C@H]1CN(c2ccc(N3CCOCC3)c(F)c2)C(=O)O1	Strain 361	MIC	-	-	-	0.5 µg/mL
COc1ccc(CSc2ccccn2)cc1	H37Rv	MIC90	-	-	-	>6.25 µg/mL
CCCCCCCCCC1=C(C#N)C(=O)OCCN1C	H37Rv	inhibition	-	12.5 µg/mL	BACTEC	0%
O=C(NNCc1ccccc1)c1ccncc1	Rifampicin-resistant	MBC	-	-	-	1.56 µg/mL
CC1CCC(NCCNCCNc2ccccc2)CC1	-	MIC	-	-	-	50 µM
C1COC(CNCCNCC23CC4CC(CC(C4)C2)C3)C1	-	MIC	-	-	-	50 µM
C[C@@H]1CN(c2c(F)c(N)c3c(=O)c(C(=O)O)cn(C4CC4)c3c2F)C[C@H](C)N1	Drug-resistant	MIC90	-	-	-	0.125 µg/mL
O=C(COc1cnccn1)N/N=c1\scc(-c2ccc(Br)cc2)n1-c1ccc(Cl)cc1Cl	H37Rv	MIC	-	-	-	22 µg/mL
COc1ccc(Sc2ncnc3nc[nH]c23)c(OC)c1	H37Rv	inhibition	-	6.25 µg/mL	-	33%
CC(C)=CCC/C(C)=C/CNCCNC(C)c1cccc2ccccc12	-	MIC	-	-	-	25 µM
O=C(COc1cnccn1)NNC(=S)Nc1ccc(Cl)cc1[N+](=O)[O-]	H37Rv	MIC	-	-	-	52 µg/mL
c1ccc(C(CNCCNC2CCCCCCC2)c2ccccc2)cc1	-	MIC	-	-	-	3.13 µM
c1cc(NCCNC2CCCCC2)c2cccnc2c1	-	MIC	-	-	-	3.13 µM
CC(C)NCCNC[C@]1(C)CCC[C@]2(C)c3ccc(C(C)C)cc3CC[C@@H]12	-	MIC	-	-	-	50 µM
CC(=O)NC[C@H]1CN(c2ccc(N3CCN(c4ccc([N+](=O)[O-])s4)CC3)c(F)c2)C(=O)O1	50	MIC	-	-	-	2 µg/mL
O=C(N/N=C/c1ccccc1F)c1ccncc1	H37Rv (ethambutol-resistant)	MIC	-	-	-	1 µg/mL
FC(F)(F)Oc1ccc(CNCCNC2CCCCCCC2)cc1	-	MIC	-	-	-	50 µM
COc1cccc(Sc2nc(Cl)nc3nc[nH]c23)c1	H37Ra	MIC	-	-	-	>12.8 µg/mL
CC(C)CC(C)NCCNC[C@]1(C)CCC[C@]2(C)c3ccc(C(C)C)cc3CC[C@@H]12	-	MIC	-	-	-	25 µM
CO[C@H]1/C=C/O[C@@]2(C)Oc3c(C)c(O)c4c(=O)c(c5oc6cc(N7CCN(CC(C)C)CC7)cc(=O)c6nc5c4c3=C2O)NC(=O)/C(C)=C\C=C\[C@H](C)[C@H](O)[C@@H](C)[C@@H](O)[C@@H](C)[C@H](OC(C)=O)[C@@H]1C	TN1916	MIC	-	-	-	16 µg/mL
NC(=O)c1cnccn1	Isolate H2374 (RIF-resistant)	MIC	-	-	-	>900 µg/mL
C[C@@H]1[C@H]2C[C@@H](C[C@H]1NCCNC(c1ccccc1)c1ccccc1)C2(C)C	-	MIC	-	-	-	12.5 µM
CC(C)N=c1cc2n(-c3ccc(Cl)cc3)c3ccccc3nc-2cc1Nc1ccc(Cl)cc1	MDR22	MIC	-	-	broth dilution / resazurin	0.25 µg/mL
COc1ccc(CNCCNCCC2=CCCCC2)cc1OC	-	MIC	-	-	-	50 µM
NC1CCN(c2nc3c(cc2F)c(=O)c(C(=O)O)cn3-c2ccc(F)cc2F)C1	MDR	MIC50	-	-	-	>8 µg/mL
CCOCCCNCCNCC(c1ccccc1)c1ccccc1	-	MIC	-	-	-	50 µM
O=C(N/N=C/c1cccc(F)c1)c1ccncc1	Rifampicin-resistant	MIC	-	-	-	≤0.1 µg/mL
CO[C@H]1/C=C/O[C@@]2(C)Oc3c(C)c(O)c4c(=O)c(c5oc6cc(N7CCN(C(C)C)CC7)cc(=O)c6nc5c4c3=C2O)NC(=O)/C(C)=C\C=C\[C@H](C)[C@H](O)[C@@H](C)[C@@H](O)[C@@H](C)[C@H](OC(C)=O)[C@@H]1C	2624 (rifampin-sensitive)	MIC	-	-	-	0.006 µg/mL
CCC(CC)NCCNC[C@]1(C)CCC[C@]2(C)c3ccc(C(C)C)cc3CC[C@@H]12	-	MIC	-	-	-	25 µM
O=c1nc(SCc2ccncc2)c2[nH]cnc2[nH]1	H37Rv	inhibition	-	6.25 µg/mL	-	41%
C[C@H]1C[C@H](N)CN1c1cc2c(cc1F)c(=O)c(C(=O)O)cn2-c1ccc(F)cc1F	ATCC35838	MBC	-	-	-	4 µg/mL
COc1ccc(CCc2cc(OC)c3ccccc3n2)cc1OC	MT4	MIC	-	-	-	77 µg/mL
CCCCSc1nc(Cl)nc2nc[nH]c12	H37Rv	inhibition	-	6.25 µg/mL	-	0%
Fc1ccccc1CCNCCNCCC1=CCCCC1	-	MIC	-	-	-	25 µM
C/C(=N\NC(=O)c1ccncc1)c1ccccc1	Ethionamide-resistant	MIC	-	-	-	3.2 µg/mL
CO[C@H]1/C=C/O[C@@]2(C)Oc3c(C)c(O)c4c(O)c(c(/C=N/N5CCN(C/C=C/c6ccccc6)CC5)c(O)c4c3C2=O)NC(=O)/C(C)=C\C=C\[C@H](C)[C@H](O)[C@@H](C)[C@@H](O)[C@@H](C)[C@H](OC(C)=O)[C@@H]1C	27 (rifampin-resistant)	MIC	-	-	-	0.1 µg/mL
Fc1ccccc1CCNCCNCCCc1ccccc1	-	MIC	-	-	-	25 µM
CO[C@H]1/C=C/O[C@@]2(C)Oc3c(C)c(O)c4c(O)c(c(/C=N/N5CCN(C6CCCC6)CC5)c(O)c4c3C2=O)NC(=O)/C(C)=C\C=C\[C@H](C)[C@H](O)[C@@H](C)[C@@H](O)[C@@H](C)[C@H](OC(C)=O)[C@@H]1C	Isolate 880902 rifampicin-resistant	MIC	-	-	-	64 µg/mL
Clc1ccc(Sc2nc(Cl)nc3nc[nH]c23)cc1	H37Rv	inhibition	-	6.25 µg/mL	-	41%
O=C(COc1cnccn1)N/N=c1\scc(-c2ccc(Cl)cc2Cl)n1-c1ccc(Cl)cc1	H37Rv	MIC	-	-	-	13 µg/mL

8 of the rows above, restated:

smiles,strain,read-out,mutations,dose,read by,value
CO[C@H]1/C=C/O[C@@]2(C)Oc3c(C)c(O)c4c(O)c(c(/C=N/N5CCN(C6CCCC6)CC5)c(O)c4c3C2=O)NC(=O)/C(C)=C\C=C\[C@H](C)[C@H](O)[C@@H](C)[C@@H](O)[C@@H](C)[C@H](OC(C)=O)[C@@H]1C,Isolate 880902 rifampicin-resistant,MIC,-,-,-,64 µg/mL
CCCCSc1nc(Cl)nc2nc[nH]c12,H37Rv,inhibition,-,6.25 µg/mL,-,0%
Fc1ccccc1CCNCCNCCC1=CCCCC1,-,MIC,-,-,-,25 µM
CO[C@H]1/C=C/O[C@@]2(C)Oc3c(C)c(O)c4c(O)c(c(/C=N/N5CCN(C/C=C/c6ccccc6)CC5)c(O)c4c3C2=O)NC(=O)/C(C)=C\C=C\[C@H](C)[C@H](O)[C@@H](C)[C@@H](O)[C@@H](C)[C@H](OC(C)=O)[C@@H]1C,27 (rifampin-resistant),MIC,-,-,-,0.1 µg/mL
CC(=O)NC[C@H]1CN(c2ccc(N3CCN(c4ccc([N+](=O)[O-])s4)CC3)c(F)c2)C(=O)O1,50,MIC,-,-,-,2 µg/mL
O=C(COc1cnccn1)N/N=c1\scc(-c2ccc(Cl)cc2Cl)n1-c1ccc(Cl)cc1,H37Rv,MIC,-,-,-,13 µg/mL
CC(C)NCCNC[C@]1(C)CCC[C@]2(C)c3ccc(C(C)C)cc3CC[C@@H]12,-,MIC,-,-,-,50 µM
Fc1ccccc1CCNCCNCCCc1ccccc1,-,MIC,-,-,-,25 µM